Anti-infective test results gathered from many reports (values: NIAID ChemDB through PubChem).

All rows: toxicity to cultured cells; cells: HeLa; endpoint: CC50

An empty or dashed field is not shown. CCn is the concentration with n% toxicity to the cells. Neighbouring rows are from separate reports. Two numbers with a dash give a range or band.

compound,read by,value
CS/C(Nc1cccc(C)c1)=C(/C#N)S(=O)(=O)c1ccccc1,MTT / absorbance,>100 µM
NC(=O)c1c[se]c([C@@H]2O[C@H](CO)[C@@H](O)[C@H]2O)n1,-,3.125–6.25 µg/mL
O=c1[nH]c(=O)n([C@H]2C[C@H](O)[C@@H](CO)O2)cc1/C=C/Br,-,>400 µg/mL
CCC1OC(=O)CC(O)C(C)C(OC2CC(N(C)C)C(OC3CC(C)(O)C(O)C(C)O3)C(C)O2)C(CC=O)CC(C)C(=O)/C=C/C2(C)OC2C1COC1OC(C)C(O)C(OC)C1OC,-,100 µg/mL
CCC(=C/C(C)C/C=C/C(C)=C/C(COC(C)=O)C(=O)C(C)C(OC(C)=O)C(C)C/C(C)=C/C(=O)O)/C=C/C1OC(=O)C=CC1C,-,0.007 µM
COc1ccc(C(=O)NCCOc2cccc(C)c2)c(Cl)c1,-,>156.5 µM
C[C@@H]1C[C@@H]([C@H](O)CC2CC(=O)NC(=O)C2)C(=O)[C@@H](C)C1,-,100 µg/mL
Nc1nc2c(ncn2C[C@H]2CC[C@@H](CO)C2)c(=O)[nH]1,-,≥400 µg/mL
CCCOC(=O)C(CCSC[C@H]1O[C@@H](n2ccc3c(N)ncnc32)[C@H](O)[C@@H]1O)NC(=O)C(F)(F)F,-,>200 µg/mL
CCOc1cc(O)c(C(=O)/C=C/c2ccc(OC)cc2)c(OC)c1,-,≥6.25 µg/mL
COc1cc(O)c2c(=O)cc(-c3ccc(OC)c(-c4c(O)cc(O)c5c(=O)cc(-c6ccc(O)cc6)oc45)c3)oc2c1,-,12.8 µg/mL
CC[C@H]1OC(=O)[C@H](C)[C@@H](O[C@H]2C[C@@](C)(OC)[C@@H](O)[C@H](C)O2)[C@H](C)[C@@H](O[C@H]2O[C@@H](C)C[C@@H](N(C)C)[C@@H]2O)[C@](C)(O)C[C@@H](C)C(=O)[C@H](C)[C@@H](O)[C@]1(C)O,-,>200 µg/mL
COc1ccc(N2CCN(c3cccc(C)c3)CC2)nn1,-,>50 µg/mL
COC(=O)C(N)CCSC[C@H]1O[C@@H](n2ccc3c(N)ncnc32)[C@H](O)[C@@H]1O,-,400 µg/mL
Cc1ccc(C)c(CN2CCN(c3nc(C(=O)O)cs3)CC2)c1,-,≥25 µg/mL
NC(=NCCC[C@H](N)C(=O)O)N[C@@H](CC(=O)O)C(=O)O,-,>200 µg/mL
C#Cc1c(C(N)=O)ncn1[C@@H]1O[C@H](CO)[C@@H](O)[C@H]1O,MTT / neutral red,13 µg/mL
Cc1cccc(OCCNC(=O)c2cc3ccccc3cc2O)c1,-,133.5 µM
O=P(Oc1ccccc1)(Oc1ccccc1)Oc1ccccc1,-,51.9 µM
CC(C)OC(=O)C(CCSC[C@H]1O[C@@H](n2ccc3c(N)ncnc32)[C@H](O)[C@@H]1O)NC(=O)C(F)(F)F,-,200 µg/mL
Cc1cccc(OCCNC(=O)c2ccc([N+](=O)[O-])cc2Cl)c1,-,>149.4 µM
CCCCC[C@H](O)/C=C/[C@H]1C=CC(=O)[C@@H]1CCCCCCC(=O)O,-,>4 µg/mL
O=c1cc(C(F)(F)F)[nH]c(=S)[nH]1,MTS,56.3 µM
Cc1cccc(OCCNC(=O)c2cccc(Cl)c2)c1,-,132.9 µM
COC(=O)c1cccc(N/C(SC)=C(\C#N)S(=O)(=O)c2ccccc2)c1,MTT / absorbance,5.67 µM
CC(=O)N[C@H]1[C@@H](O[C@@H]2O[C@H](C[C@@H](O)[C@H]3O[C@@H](n4ccc(=O)[nH]c4=O)[C@H](O)[C@@H]3O)[C@H](O)[C@H](O)[C@H]2NC(=O)/C=C/CC(C)C)O[C@H](CO)[C@@H](O)[C@@H]1O,-,1 µM
CS/C(Nc1cc(C)cc(C)c1)=C(/C#N)S(=O)(=O)c1ccccc1,MTT / absorbance,>100 µM
Nc1ccn([C@H]2CC[C@@H](CO)O2)c(=O)n1,-,>100 µM
CCCCCCCC/C=C\CCCCCCCC(=O)OCC(O)CO,-,75 µg/mL
COc1ccc(CNC(=O)c2c(O)cc(OCC=C(C)C)cc2OC)cc1,-,≥25 µg/mL
CCC(=C/C(C)C/C=C/C(C)=C/C(C)C(=O)C(C)C(OC(C)=O)C(C)C/C(C)=C/C(=O)OC)/C=C/C1OC(=O)C=CC1C,-,0.001 µM
O=C1CC(=O)N([C@@H]2O[C@H](CO)[C@@H](O)[C@H]2O)C(=O)N1,-,200 µg/mL
COc1cc(Cl)c(C(=O)NCCOc2cccc(C)c2)cc1OC,-,>142.9 µM
CCC(=C/C(C)C/C=C/C(C)=C/C(C)C(=O)C(C)C(OC(C)=O)C(C)C/C(C)=C/C(=O)O)/C=C/C1OC(=O)C=CC1C,-,0.006 µM
C[C@H]1c2cccc(O)c2C(O)=C2C(=O)[C@]3(O)C(O)=C(C(N)=O)C(=O)[C@@H](N(C)C)[C@@H]3[C@@H](O)[C@@H]21,-,>100 µM
Cc1cccc(OCCNC(=O)c2ccncc2Cl)c1,-,>172 µM
CCC(=C/C(C)C/C=C/C(C)=C/C(CO)C(=O)C(C)C(O)C(C)C/C(C)=C/C(=O)OC)/C=C/C1OC(=O)C=CC1C,-,0.002 µM
Nc1nc(Cl)c2ncn(C[C@H]3CC[C@@H](CO)C3)c2n1,-,≥10 µg/mL
Cc1cccc(OCCNC(=O)c2ccccc2O)c1,-,59.3 µM
Nc1nc(NC2CC2)c2ncn([C@H]3C=C[C@@H](CO)O3)c2n1,-,500 µM
N[C@@H](COP(=O)(O)OC[C@H](O)CO)C(=O)O,-,>200 µg/mL
Cc1cccc(SCCNC(=O)c2ccccc2Cl)c1,-,60.8 µM
CC(=C/C(C)C/C=C/C(C)=C/C(CO)C(=O)C(C)C(O)C(C)C/C(C)=C/C(=O)O)/C=C/C1OC(=O)C=CC1C,-,0.0074 µM
Nc1ncnc2c1ccn2[C@@H]1O[C@H](CO)[C@@H](O)[C@H]1O,-,1 µg/mL
Cc1cccc(NCc2cc3ccccc3[nH]c2=O)c1,-,<189.2 µM

For reference, 3 entries again:

compound,read by,value
NC(=O)c1c[se]c([C@@H]2O[C@H](CO)[C@@H](O)[C@H]2O)n1,-,3.125–6.25 µg/mL
COc1cc(O)c2c(=O)cc(-c3ccc(OC)c(-c4c(O)cc(O)c5c(=O)cc(-c6ccc(O)cc6)oc45)c3)oc2c1,-,12.8 µg/mL
COC(=O)c1cccc(N/C(SC)=C(\C#N)S(=O)(=O)c2ccccc2)c1,MTT / absorbance,5.67 µM